# Source: PubChem BioAssay AID449762 (Southern Research Specialized Biocontainment Screening …, 2010)
# This is one part of the list. Results filed as inconclusive are left out. The source made the active and inactive calls. Cut-off read from the data, not from the text of the source: inconclusive = inhibition above about 70% without an active follow-up result; inactive = below that.
# Assay: M. tuberculosis growth inhibition, HTS (AID 449762);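 note: bacterial growth assessed after seven days of incubation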
# Conditions: M. tuberculosis H37Rv growth inhibition, 7H9 media; at 25 µM; active compounds read high
row,SMILES,inhibition
1,COc1cc(OC)cc(C(=O)NCC2(N3CCCCC3)CCCCC2)c1,inactive: 1.66%
2,Cc1ccc(C(=O)NCC2(N3CCCCC3)CCCCC2)o1,inactive: -6.34%
3,Fc1ccccc1NC1CCN(Cc2ccccc2)CC1,inactive: -5.26%
4,CCN1CCC(Nc2cccc(F)c2)CC1,inactive: -9.81%
5,O=C(NCC1(N2CCCCC2)CCCCC1)c1ccco1,inactive: 10.8%
6,CN(C)c1ccc(C(=O)NCC2(N3CCCCC3)CCCCC2)cc1,inactive: -6.13%
7,CCOc1ncccc1C(=O)NCC1(N2CCOCC2)CCCCC1,inactive: -5.9%
8,CN1CCC(Nc2ccc(F)c(Cl)c2)CC1,inactive: -2.86%
9,CC(C)(C)OC(=O)N1CCC(Nc2ccccc2)CC1,inactive: 3.23%
10,O=C(O)C1(Nc2ccccc2)CCN(Cc2ccccc2)CC1,inactive: -3.84%
11,CCCOc1ccc(C(=O)NCC2(N(C)C)CCCCC2)cc1,inactive: 7.66%
12,COc1cc(OC)cc(C(=O)NCC2(N3CCOCC3)CCCCC2)c1,inactive: 2.37%
13,COc1cccc(C(=O)N(c2cc(C)cc(C)c2)C2CCN(C(=O)OC(C)(C)C)CC2)c1,inactive: 2.71%
14,CCC(CO)(C(=O)OC1CN2CCC1CC2)c1ccccc1 (centres undefined),inactive: -2.77%
15,CN1CCC(Nc2ccc(Cl)cc2)CC1,inactive: 3.42%
16,CCCOc1ccc(C)cc1CN(CCCl)CCCl,inactive: 5.38%
17,COc1cc(C(=O)NCC2(N3CCOCC3)CCCCC2)cc(OC)c1C,inactive: -9.77%
18,O=C(NCC1(N2CCOCC2)CCCCC1)c1cc(Br)ccc1Cl,inactive: -5.27%
19,COc1ccc(C(=O)NCC2(N3CCOCC3)CCCCC2)cc1OC,inactive: 1.03%
20,CCOC(=O)N1CCC(Nc2ccc(C)cc2)CC1,inactive: -1.07%
21,N/C(=N\O)c1c(N)no[n+]1[O-],inactive: 0.2%
22,O=C(OC1CN2CCC1CC2)C1c2ccccc2C=Cc2ccccc21 (centres undefined),inactive: 3.49%

row,SMILES,inhibition
1,CCc1cc(C(=O)NCC2(N3CCCCC3)CCCCC2)sc1C,inactive: -0.65%
2,N#Cc1ccc(C(=O)NCC2(N3CCCCC3)CCCCC2)cc1,inactive: -0.58%
3,CC(C)(C)OC(=O)N1CCC(N(C(=O)c2ccccc2)c2ccc(Cl)cc2)CC1,inactive: 9.79%
4,CN(C)C1(CNC(=O)c2cccc(C#N)c2)CCCCC1,inactive: 4.57%
5,c1ccc(CN2CCC(Nc3ccccc3)CC2)cc1,inactive: -6.29%
6,CCCN1CCC(Nc2cc(OC)cc(OC)c2)CC1,inactive: 0.8%
7,O=C(NCC1(N2CCCCC2)CCCCC1)c1ccc(OC(F)F)cc1,inactive: 0.86%
8,CCN1CCC(Nc2ccc(Cl)cc2)CC1,inactive: -0.85%
9,N#CC1(Nc2ccccc2)CCN(CCc2ccccc2)CC1,inactive: -7.64%
10,O=C(NCC1(N2CCCCC2)CCCCC1)c1cccc([N+](=O)[O-])c1,inactive: -7.82%
11,O=C(NCC1(N2CCCCC2)CCCCC1)c1cccc(C(F)(F)F)c1,inactive: 3.44%
12,COc1cc(C(=O)NCC2(N3CCCCC3)CCCCC2)ccc1OC(F)F,inactive: -2.58%
13,O=C(NCC1(N2CCOCC2)CCCCC1)c1cc(=O)[nH]c2ccccc12,inactive: 2.03%
14,CN1CCN(CCOC(=O)C(O)(c2ccccc2)c2ccccc2)CC1,inactive: 1.44%
15,COc1ccc(NC2CCN(C(=O)OC(C)(C)C)CC2)cc1,inactive: 1.01%
16,CC(C)c1ccc(NC2CCN(C(=O)OC(C)(C)C)CC2)cc1,inactive: 8.67%
17,COc1ccc(CN(CCCl)CCCl)cc1Cl,inactive: -4.44%
18,CN(C)c1cccc(C(=O)NCC2(N3CCCCC3)CCCCC2)c1,inactive: -4.01%
19,COc1cc(OC)c(C(=O)NCC2(N(C)C)CCCCC2)cc1OC,inactive: 5.31%
20,O=C(NCC1(N2CCOCC2)CCCCC1)c1cc(F)c(F)cc1Cl,inactive: -5.92%
21,O=C(NCC1(N2CCCCC2)CCCCC1)c1cncc(Br)c1,inactive: 4.11%
22,CN1CCC(Nc2cccc(F)c2)CC1,inactive: 1.44%

row,SMILES,inhibition
1,CCCOc1ccc(C(=O)NCC2(N(C)C)CCCCC2)cc1OC,inactive: -6.54%
2,COc1ccc(C(=O)NCC2(N3CCCCC3)CCCCC2)cc1,inactive: -3.6%
3,COc1ccc(C(=O)NCC2(N3CCCCC3)CCCCC2)c(OC)c1OC,inactive: -4.35%
4,CC(C)(C)OC(=O)N1CCC(N(C(=O)c2ccccc2)c2ccc(F)cc2)CC1,inactive: 7.1%
5,O=C(NCC1(N2CCCCC2)CCCCC1)c1ccc(=O)[nH]c1,inactive: -26.4%
6,O=C(NCC1(N2CCCCC2)CCCCC1)c1cccs1,inactive: -2.45%
7,CSc1ccccc1C(=O)NCC1(N2CCCCC2)CCCCC1,inactive: -1.18%
8,O=C(NCC1(N2CCCCC2)CCCCC1)c1ccc(Cl)nc1,inactive: -9.58%
9,Cc1cc(C)cc(N(C(=O)c2ccccc2)C2CCN(C(=O)OC(C)(C)C)CC2)c1,inactive: 20.7%
10,O=C(NCC1(N2CCOCC2)CCCCC1)c1cc2ccccc2o1,inactive: 1.89%
11,N#CC1(Nc2ccccc2)CCN(Cc2ccccc2)CC1,inactive: 2.7%
12,O=C(NCC1(N2CCCCC2)CCCCC1)c1ccc(Cl)s1,inactive: 4.38%
13,COc1ccc(Cl)cc1C(=O)NCC1(N2CCOCC2)CCCCC1,inactive: 4.74%
14,CCOC(=O)N1CCC(Nc2ccc(OC)cc2)CC1,inactive: -0.4%
15,CCOc1ccc(C)cc1CN(CCCl)CCCl,inactive: -4.63%
16,O=C(NCC1(N2CCCCC2)CCCCC1)c1ccc(F)cc1,inactive: 3.03%
17,CCOC(=O)N1CCC(Nc2ccc(F)cc2)CC1,inactive: 3.97%
18,COc1cc(C(=O)NCC2(N(C)C)CCCCC2)ccc1OC(F)F,inactive: 6.18%
19,CCOC(=O)N1CCC(Nc2cccc(C)c2)CC1,inactive: -3.65%
20,Cc1ccc(OCC(C)C)c(CN(CCCl)CCCl)c1,inactive: 2.39%
